# Data published in article PMC4317638 (Emerging Microbes & Infections, 2014).
# Tested on: Ebola VLP entry into HeLa cells
Compound,Selectivity Index [fold],IC50 (read-out: Block Ebola VLP entry IC50) [µM]
CN1CCN(CCCN2c3ccccc3Sc3ccc(S(=O)(=O)N(C)C)cc32)CC1 [Thioproperazine],>116,
Spiramycin,,4.32
